The target in experiment [1] is T1, Shiga toxin 1 (Stx1) (Escherichia coli O157:H7, UniProt P08026 23-315). The experiment in a line: SPR, Stx1 immobilised. Background: In SPR one partner is held on a chip, and binding of the other changes the refractive index at the surface.
For experiment [2], the target named is T1, Shiga toxin 1 (Stx1). As to the kind of experiment: cell-based or functional assay.
Experiment [3] has as its target T1, Shiga toxin 1 (Stx1). As to the kind of experiment: cell-based or functional assay. The source holds these as a separate data set.
In experiment [4] the target is T1, Shiga toxin 1 (Stx1). The experiment in a line: dilution ELISA on Stx1 (captured with mAb 4D3 or coated on the plate); […]. (ELISA stands for enzyme-linked immunosorbent assay.)
In experiment [5] the target is T1, Shiga toxin 1 (Stx1). The experiment in a line: dilution ELISA and SPR.
Experiment [6] deals with T1, Shiga toxin 1 (Stx1). As to the kind of experiment: dilution ELISA, HRP-anti-E-tag.
The target of experiment [7] is T1, Shiga toxin 1 (Stx1). The experiment in a line: dilution ELISA on Stx1 (captured with mAb 4D3 or coated on the plate); […]. This is another data set of the same source.

Where two headings read alike, the source gives them in different places.

B1: A5/A4 heterodimer VNA (designed binder)
chain: QVQLVESGGGLVQPGGSLRLSCAALEFTLEDYAIAWFRQAPGKEREGVSCISKSGVTKYTDSVKGRFTVARDNAKSTVILQMNNLRPEDTAVYNCAAVRPVFVDSVCTLATRYTYWGEGTQVTVSSAHHSEDPGGGGSGGGGSGGGGSQVQLVESGGGLVQPGGSLRLSCAASGFTLGSYHIGWFRHPPGKEREGTSCLSSRGDYTKYAEAVKGRFTISRDNTKSTVYLQMNNLKPEDTGIYVCAAIRPVLSDSHCTLAARYNYWGQGTQVTVSSAHHSEDP
As to B1, binding with Shiga toxin 1 (Stx1) [1] was characterised by a dissociation constant (Kd) of 0.74 nM. Also, the “IC50, Vero cell neutralization assay” value in the experiment with Shiga toxin 1 (Stx1) [2] came out at 0.3 nM. For the same molecule, the “fold neutralization potency over the pool of monomer VHHs” value with Shiga toxin 1 (Stx1) [3] amounted to 100 fold. Besides, in the experiment with Shiga toxin 1 (Stx1) [4], the EC50 (read off the curve) (commonly the concentration at which the effect is half-maximal) is roughly 0.4 nM. In the experiment with Shiga toxin 1 (Stx1) [5], the “fold improvement of EC50 and KD over the monomer VHHs” value is roughly 10 fold. Besides, in the experiment with Shiga toxin 1 (Stx1) [6], the EC50 (usually the midpoint of the concentration-response curve) was 0.4 nM.

B2: A9/A4 heterodimer VNA (designed binder)
chain: QVQLVETGGGLAQAGDSLRLSCVEPGRTLDMYAMGWIRQAPGEEREFVASISGVGGSPRYADSVKGRFTISKDNTKSTIWLQMNSLKPEDTAVYYCAAGGDIYYGGSPQWRGQGTRVTVSSEPKTPKPQGGGGSGGGGSGGGGSQVQLVESGGGLVQPGGSLRLSCAASGFTLGSYHIGWFRHPPGKEREGTSCLSSRGDYTKYAEAVKGRFTISRDNTKSTVYLQMNNLKPEDTGIYVCAAIRPVLSDSHCTLAARYNYWGQGTQVTVSSAHHSEDP
B2: the dissociation constant (Kd) (usually a measure of binding affinity in units of concentration) with Shiga toxin 1 (Stx1) [1] turned out to be 0.5 nM. Also, the “EC50 (read off the curve)” value with Shiga toxin 1 (Stx1) [7] is roughly 0.5 nM. Besides, in the experiment with Shiga toxin 1 (Stx1) [2], the “IC50, Vero cell neutralization assay” value came out at 0.05 nM. The same molecule had a concentration for a half-maximal effect (EC50) with Shiga toxin 1 (Stx1) [6] of 0.5 nM.

B3: A9/A5/D10 heterotrimer VNA (designed binder)
chain: QVQLVETGGGLAQAGDSLRLSCVEPGRTLDMYAMGWIRQAPGEEREFVASISGVGGSPRYADSVKGRFTISKDNTKSTIWLQMNSLKPEDTAVYYCAAGGDIYYGGSPQWRGQGTRVTVSSEPKTPKPQGGGGSGGGGSGGGGSQVQLVESGGGLVQPGGSLRLSCAALEFTLEDYAIAWFRQAPGKEREGVSCISKSGVTKYTDSVKGRFTVARDNAKSTVILQMNNLRPEDTAVYNCAAVRPVFVDSVCTLATRYTYWGEGTQVTVSSAHHSEDPGGGGSGGGGSGGGGSQVQLVETGGLVQAGGSLRLSCAASGVPFSDYTMAWFRQAPGKEREVVARITWRGGGPYYGNSGNGRFAISRDIAKSMVYLHMDSLKPEDTAVYYCAASRLRPALASMASDYDYWGQGTQVSVSSEPKTPKPQ
Regarding B3, the “IC50, Vero cell neutralization assay” value with Shiga toxin 1 (Stx1) [2] stood at 0.08 nM. In addition, the midpoint of the response with Shiga toxin 1 (Stx1) [6], the EC50, lay at 0.3 nM.

Values taken from patent US20140294826A1 (TUFTS UNIVERSITY, published 2014).
